# According to PubChem BioAssay AID2184 (The Scripps Research Institute Molecular Screening Center, 2009):
# The entries are a selection whose mix differs from that of the whole data set. The source made the active and inactive calls. Rule as the data show it: active = inhibition above about 0.66%; inactive = the rest.
# Biological target: Beta-lactamase TEM (Escherichia coli) (UniProt P62593)
# Assay: TEM-1 inhibition (serine beta-lactamase), epi-absorbance biochemical counter-screen, VIM-2/IMP-1 inhibitor project (AID 2184)
# Conditions: TEM-1 beta-lactamase, nitrocefin absorbance inhibition; at 5.6 µM; stronger effect = higher value
compound,measurement,value
Nc1cccc2c([As](=O)(O)O)cccc12,inhibition,active: 1.03%
